Data on 5 sequences can be found in PMC5253667.

Series [1] addresses HP1043 (HsrA) (UniProt O25684). Nature of the series: DNase I footprinting. Conditions: 10 mM Mg2+, 10 mM Tris-HCl pH 7.5, 50 mM NaCl, 10 mM MgCl2, 1 mM DTT, 0.01% Igepal CA-630, 10% glycerol (none for hydroxyl-radical), 300 ng salmon sperm DNA, ~15 fmol probe, 20 min, recombinant protein, protein details: N-terminal His, label: 5'-32P one strand, probe letters rebuilt from the primers and the genome, part of a longer ….

The target in series [2] is HP1043 (HsrA) (UniProt O25684). Nature of the series: hydroxyl-radical footprinting. Conditions: 10 mM Mg2+, 0.8-3.3 uM dimer, two binding sites; 10 mM Tris-HCl pH 7.5, 50 mM NaCl, 10 mM MgCl2, 1 mM DTT, 0.01% Igepal CA-630, 10% glycerol (none for hydroxyl-radical), 300 ng salmon sperm DNA, ~15 fmol probe, 20 min; recombinant protein; protein details: N-terminal His; label: 5'-32P one strand; probe letters rebuilt from the primers and the genome; part of a longer ….

The mark [3] stands for this setting: protection saturated at 13.3 uM dimer (low affinity).

Construct, isoform or probe ends are uncertain for at least one entry. For some assays here: Weaker means in comparison with the reference protein, sequence or condition of that experiment.

For the sequence “GCCCAATCCCATAAATATAGGTAAGGGCATACTCTACTCTCTTCTTTTTTGGTAAATCTACACCAGCAATCCTTGCCATGCTTTATCCTTGTCTTTGTTTGTGTTTAGGGGTAGCGCAGATCACTCTAATAACGCCCCTTCTTTTAATGATTTTGCACTTATCGCACATCTTTTTCACTGATGGCCTGACTTTCATGATTTTTCTCCTTTGAAAAAATTAGGCACTACTAAAAACTCTTATACTAACATATTTTCATTGAAATAACCCTTAAATTATTTATATCTAAAAGTTATCCGACCCTTGTCTAAGCTATAGGGCGTAAGCTCTAGCTTGACCCTATCGCCTAAAGCAATCCTAATATAGTGCATGCGCATCTTTCCAGAAATACGGCACAACACCACATGCTTATTGTCTAACTCCACCTTAAAAGTGGCGTTAGGCAACGCCTCAATCACTTTCCCATCC (double strand) [Prpl36 (pGEMp1296)]”, the binding result in series [1] (setting [3]) is “binds more weakly”. As for “GATACACCTAATCCTCTGCTATTCTACTAAAAAATAGCTTAAATTCTAATTATAAAATGAGTTTAAAATAAAATTTAAAAACCCCCATTTTTTAAAAAATAGGGTTTCAATTGTTTGCGTTTGGTAAAAACAAACC (double strand) [PrpoD HY (pGEMp0088HY)]”, the binding result in series [2] is listed as “binds”. As for “CCCTTTCAATTGCAAAGCAAACTTTTAAGAGTGATTCAAGAAAAAGAAATCACACGCCTTGGGGATAATAAGAGCGTTAAAATTGATGTTCGTTTCATTTCCGCTACCAACGCTAACATGAAAGAAAAAATCGCTGCGAAAGAATTCAGAGAGGATTTGTTTTTCCGCTTGCAGATTGTGCCTATAACTATCGCGCCTTTAAGAGAGAGGGTTGAAGAGATCTTACCCATTGCTGAAATCAAGCTTAAAGAAGTGTGCGATGCGTATCATTTGGGGCCAAAATCCTTTTCAAAAAACGCCGCGAAACGCCTTTTAGAATACTCTTGGCATGGGAATGTGCGAGAGCTTTTAGGCGTCGTGGAGAGAGCGGCGATTTTAAGCGAAGGAGCAGAAATCCAAGAAAAAGATTTGTTTTTGGAAAGGTAGTTTGCAAGGC (double strand) [flgR intragenic (pGEM0703)]”, the binding result in series [1] (protection saturated at 1.7 uM dimer (high affinity)) was “binds”. With “TTACCAAACGCAAACAATTGAAACCCTATTTTTTAAAAAATGGGGGTTTTTAAATTTTATTTTAAACTCATTTTATAATTAGAATTTAAGCTATTTTTTAGTAGAATAGCAGAGGATTAGGTGTATCTTATCTATAGACCTAGCTTTTGGTTGAAAGCATGGGTTCTTATTTTATGGAGTGTCCAATGAAAAAGAAAGCTAACGAAGAAAAAGCCCCCAAAAGAGCTAAACAGGAAGCCAAAACAGAAGCCACACAGGAAAATAAAGCTAAAG (double strand) [PrpoD (pGEMp0088)]”, the binding result in series [1] (setting [3]) is “binds more weakly”. The same measure, in the same setting: the same measure for “CGCTCTCATTTATTACATTGACCCTAAGGCTAAAAACGCCCATTTACCCCAGAATGTCCAATGCATTAATGAAAGCGCGGTGCATGCCATGCAAGATTTAATGCCCAAACTCATAGAAATGGCCTCTTAAGAGATGTTGAAATAATTTTTATTTTTTCAGCTAACGATTAGCAAAAACATGGTTTAATTGCTTCCATCGTTTGCTAAAAGTAATAATTAAAGGAGTTTGAGAGCCTGATGC (double strand) [PnuoA (pGEMp1260)]”: “binds more weakly”.
